{"source": "paper PMC3904841", "about": "“Crystal Structures of HIV-1 gp120 Envelope Glycoprotein in Complex with NBD Analogues That Target the CD4-Binding Site” (PLoS ONE, 2014)", "origin": "cited, not measured here", "key": {"gp120": {"target": "gp120", "details": "binding affinity for gp120; ref [24,27]; cited from earlier work"}, "HIV-1 YU2 virus": {"tested_on": "HIV-1 YU2 virus", "details": "Cf2Th-CD4/CCR5 cells infected with HIV-1 YU2 virus; ref [24,27]; cited from earlier work"}}}
{"molecule": "O=C(NCC1CCN(C2CC2)C1)C(=O)Nc1ccc(Cl)c(F)c1", "note": "(centres unmarked) [MAE-II-188]", "values": [{"measurement": "Kd", "setting": "gp120", "value": 1.7, "unit": "µM"}, {"measurement": "IC50", "setting": "HIV-1 YU2 virus", "value": 33.5, "unit": "µM"}]}
